Assay results published in ChEMBL document CHEMBL1133927, “Antimalarial t-butylperoxyamines” (Bioorg Med Chem Lett, 2001).

Assays:
Plasmodium falciparum [1] = assay: In vitro total parasite growth inhibition for chloroquine-sensitive Plasmodium falciparum FSH 14
Plasmodium falciparum [2] = assay: In vitro total parasite growth inhibition for chloroquine-sensitive Plasmodium falciparum FJB D9
Plasmodium falciparum [3] = assay: In vitro schizont maturation inhibition for chloroquine-sensitive Plasmodium falciparum FSH 14
Mus musculus [4] = assay: Mean survival time of mice (Mus musculus) infected with Plasmodium berghei after administration of compound at the dose of 80 mg/kg
Mus musculus [5] = assay: Mean survival time of mice (Mus musculus) infected with Plasmodium berghei after administration of compound at the dose of 20 mg/kg
Mus musculus [6] = assay: Mean survival time of mice (Mus musculus) infected with Plasmodium berghei after administration of compound at the dose of 40 mg/kg
Plasmodium falciparum [7] = assay: In vitro schizont maturation inhibition for chloroquine-sensitive Plasmodium falciparum FJB D9
Mus musculus [8] = assay: Mean survival time of mice (Mus musculus) infected with Plasmodium berghei after administration of compound at the dose of 160 mg/kg

COc1ccc2c3c1O[C@@H]1[C@]34CCN(COOC(C)(C)C)[C@H](C2)[C@]42CC[C@@]1(OC)C(C(C)(O)C(C)(C)C)C2 (some centres not stated) was tested, and the IC50 (Plasmodium falciparum [1]) was 1.95 µM well-1, the IC90 (Plasmodium falciparum [1]) was 5 µM well-1 and the IC50 (Plasmodium falciparum [2]) was 1.45 µM well-1. The IC90 (Plasmodium falciparum [2]) was 4 µM well-1, the IC50 (Plasmodium falciparum [3]) was 2.65 µM well-1 and the IC90 (Plasmodium falciparum [3]) was 5.6 µM well-1. For the same molecule, the Mean survival time (Mus musculus [4]) was 10 days, the Mean survival time (Mus musculus [5]) was 7 days and the Mean survival time (Mus musculus [6]) was 8.4 days. It also gave an IC50 (Plasmodium falciparum [7]) of 1.6 µM well-1, an IC90 (Plasmodium falciparum [7]) of 4.6 µM well-1 and a Mean survival time (Mus musculus [8]) of 12.6 days.
